For test [1], the target named is HC-fragment of BoNT/A fused to a C-terminal Streptag (HCAS) (Clostridium botulinum, UniProt P0DPI1 871-1296).
Test [2] has as its target HC fragment of BoNT serotype B (HCB) (Clostridium botulinum, UniProt P10844 859-1291).

Where “and” joins values, the source holds several entries; their conditions need not be identical. Equal entries are not always repeated.

B1: GST-hSV2C 455–579 (domain or fragment, human, UniProt Q496J9 455-579, looked up)
chain: PDVIKPLQSDEYALLTRNVERDKYANFTINFTMENQIHTGMEYDNGRFIGVKFKSVTFKDSVFKSCTFEDVTSVNTYFKNCTFIDTVFDNTDFEPYKFIDSEFKNCSFFHNKTGCQITFDDDYSA
For the molecule B1, in test [1], the koff – broadly, the rate constant with which the complex falls apart – amounted to 0.12 s⁻¹ and the kon (as a rule, the rate constant with which the complex forms) worked out at 310000 M⁻¹ s⁻¹.

B2: GST-rSyt-II 1–61 (domain or fragment, rat, UniProt P29101 1-61, looked up)
chain: MRNIFKRNQEPIVAPATTTATMPLAPAAPADNSTESTGTGESQEDMFAKLKDKFFNEINKI
B2: in test [2], the Kd (commonly the constant that tells how readily two partners part at equilibrium) is 75 nM and 72 nM; the koff was determined as 0.041 s⁻¹; the kon is 540000 M⁻¹ s⁻¹.

B3: GST-rSV2C 454–579 (luminal domain 4, LD4) (domain or fragment, rat, UniProt Q9Z2I6 454-579, looked up)
chain: FPDVIKHLQSDEYALLTRNVQKDKYANFSINFTMENQVHTGMEYDNGRFLGVKFKSVTFKDSVFKSCTFDDVTSVNTYFKNCTFIDTLFENTDFEPYKFIDSEFQNCSFLHNKTGCQITFDDDYSA
Consider B3, for which, in test [1], binding was characterised by a dissociation constant (Kd) of 510 nM.

Source of the values: PMC4885069, “Botulinum Neurotoxin Serotype A Recognizes Its Protein Receptor SV2 by a Different Mechanism than Botulinum Neurotoxin B Synaptotagmin” (Toxins, 2016).
